Source: PMC10831071, “Reaction hijacking inhibition of Plasmodium falciparum asparagine tRNA synthetase” (Nature Communications, 2024)

Tests used:
[1] = system: Dd2 parasites selected with OSM-S-106; experiment: Sensitivity of ramp-up OSM-S-106-selected Dd2 clones; type: cell-based, Plasmodium falciparum
[2] = system: P. falciparum Dd2-B2 clone; type: cell-based, Plasmodium falciparum; details: OSM-S-106 selection at 3 × IC90
Description: Wells were monitored daily by smear during the first 7 days to ensure parasite clearance, during which media was changed daily. […] Whole-genome sequencing analysis employed MiSeq data from libraries of 2 × 300 bp paired end reads.

SMILES: Nc1ncnc2cc(-c3cccc(S(N)(=O)=O)c3)sc12 [OSM-S-106]
- IC50 (fold increase) ([1]; parasite Dd2-B2-2 (parent)): 1.0 fold
- IC50 (fold increase) ([1]; parasite Dd2-B2-3 (parent)): 1.0 fold
- IC50 (fold increase) ([1]; parasite Dd2-OSM-2A6): 8.8 fold
- IC50 (fold increase) ([1]; parasite Dd2-OSM-2A9): 4.1 fold
- IC50 (fold increase) ([1]; parasite Dd2-OSM-2B2): 8.8 fold
- IC50 (fold increase) ([1]; parasite Dd2-OSM-2D6): 9.9 fold
- IC50 (fold increase) ([1]; parasite Dd2-OSM-3E5): 2 fold
- IC50 (fold increase) ([1]; parasite Dd2-OSM-3H7): 2.8 fold
- Minimum Inoculum for Resistance (MIR) [2]: > 2.4 × 10^8
